Values from PubChem BioAssay AID504761 (Drosophila RNAi Screening Center, 2011).

Screen: 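Fly genes whose silencing reduces dengue virus type 2 infection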 (primary screen)
Cells: D.Mel-2 cells from Drosophila
Reagent: long dsRNA against Drosophila genes
Treatment: infection with dengue virus type 2; dose and infection time not stated
Detection: 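Cells stained for dengue envelope protein and imaged; percent of infected cells per well on duplicate plates, ranked by infection, with stained nuclei counted for cell number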
Scale: infection score: higher = more virus-infected cells
Active means: 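Low infection ranks in the two replicates (chance level up to 0.065) followed by a retest with a 1.5-fold or larger significant decrease, p below 0.05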
Meaning of the calls: active = confirmed: knock-down lowers infection; inactive = not picked or not confirmed
In all, the deposit lists about 22,000 reagents; shown is a random part of those with a known target gene and a result. Over the whole deposit, 116 (0.52%) are marked active. 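Calls depend on retest data that are not deposited; infection was ranked per plate without normalising between plates; the unit of the infection score is not given.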 Unmarked entries are inactive. Not all columns of the deposit are shown. Not stated in the record: the amount of reagent, the time to read-out.

infection score, replicate 1, by gene knocked down and reagent
CG15126: DRSC06548 3.37
LManIII: DRSC03221 8.76; DRSC29001 9.33
Obp56g: DRSC06432 2.9
Csgalnact: DRSC06228 3.69
CG11882: DRSC14425 5.4; DRSC27909 21.8
ais: DRSC10523 11.1; DRSC25460 4.75
Cp7Fc: DRSC18035 0.36; DRSC27432 18.6
gd: DRSC20336 1.07
axed: DRSC08833 0.47; DRSC10982 6.14

Individual results from above.
axed [DRSC08833], infection score, replicate 1: 0.47
Entry for Cp7Fc [DRSC27432] in “infection score, replicate 1”: 18.6

Next entries follow:
infection score, replicate 1, by gene knocked down and reagent
omd: DRSC16507 2.26; DRSC29369 18.7
CG11029: DRSC02119 6.21
mspo: DRSC07652 15.6; DRSC28194 24.2
Cyp6t1: DRSC20564 1.18; DRSC24235 1.14
Eip63E: DRSC08658 17.4
CCDC53: DRSC03056 2.13
